# Percent effect of library compounds

The values are deposited in ChEMBL (CHEMBL3988442, “University of Dundee, Small-Polar-MMV Screening Library” (2021)).

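Growth of Mycobacterium tuberculosis over 3 days (7H9 medium with glucose and tyloxapol); the read-out is not stated. Compounds at 500 µM. Direction is inferred from retests: higher values go with more growth inhibition. About 18,000 compounds were tested under these conditions; 7.9% (about 1,400) showed 50% or more at least once.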

Each number is a percent effect as filed. The record does not define 0% and 100%; most values in the screen are far below 50% and negative numbers occur (in some assays of this library far below -100). This is part of a subset picked to be rich in strong results.

{"compound": "CCC(CO)Nc1ncnc2c1c(Br)nn2C", "stereo": "stereo not drawn", "percent effect": 25.65}
{"compound": "CN(C)C(=O)C(CO)c1ccccc1", "stereo": "stereo not drawn", "percent effect": 5.252}
{"compound": "CNCC(=O)N1CCC(Oc2ccc(C)cc2)CC1", "percent effect": 43.67}
{"compound": "CNCc1cnn(-c2ccccc2)c1", "percent effect": 7.208}
{"compound": "CC(C)(C)NCCNC(=O)CCc1ccccn1", "percent effect": -10.78}
{"compound": "Nc1ccc(C2CCCN2)nn1", "stereo": "stereo not drawn", "percent effect": 8.13}
{"compound": "Cc1nc(CN2CCCNCC2)oc1C", "percent effect": 0.9507}
{"compound": "CC1(C)CN(c2cncc(C(N)=O)n2)C[C@]1(C)O", "percent effect": -1.252}
{"compound": "CC1CCCCN1CC(N)=O", "stereo": "stereo not drawn", "percent effect": -0.8524}
{"compound": "NCCn1cc(C(=O)NCCSC2CCCCC2)nn1", "percent effect": 61.4}
{"compound": "CCC(NC(=O)CCn1cncn1)c1nccs1", "stereo": "stereo not drawn", "percent effect": -12.48}
{"compound": "CCN(CC)C(=O)CCC(=O)NCc1c[nH]nc1C", "percent effect": -2.302}
{"compound": "COc1ccc(S(=O)(=O)N2CC(NCC3CC3)C2)cc1", "percent effect": 57.6}
{"compound": "NC1CCN(CC2CCCC2)C1", "stereo": "stereo not drawn", "percent effect": 5.775}
{"compound": "CCC[C@H]1CN(C(=O)c2ccnc(NC)c2)C[C@@H]1N", "percent effect": 13.09}
{"compound": "CC(=O)Nc1ccc(N2C(=O)C=CC2=O)cc1", "percent effect": 83.61}
{"compound": "CN(CCCO)C(=O)c1ccc(Cl)cc1F", "percent effect": 18.55}
{"compound": "CCN(CCC(=O)OC)Cc1cccc2c1OCO2", "percent effect": 21.58}
{"compound": "NCCS(=O)(=O)N1CCCc2ccccc21", "percent effect": 27.64}
{"compound": "COC(=O)c1cc(CN2CCCSCC2)oc1C", "percent effect": -1.471}
{"compound": "Cc1ccccc1-c1nc(CNC(C)(CO)CO)no1", "percent effect": 2.966}
{"compound": "COc1ccc(CCC(=O)N(C)CC(N)=O)cc1Br", "percent effect": 28.71}
{"compound": "CC(NC(=O)Cn1ccc(=O)n(C)c1=O)c1cccs1", "stereo": "stereo not drawn", "percent effect": 1.068}
{"compound": "NCCc1nc(-c2cccc(Cl)c2)no1", "percent effect": 65.4}
{"compound": "O=C(NCC1(O)CCCc2ccccc21)c1csnn1", "stereo": "stereo not drawn", "percent effect": 31.32}
{"compound": "NCCN1CCN(c2ncccn2)CC1", "percent effect": 12.85}
{"compound": "CC(C)NCC1CCC(=O)N1", "stereo": "stereo not drawn", "percent effect": 7.681}
{"compound": "NCC1CCN(C2CCCCC2)C1", "stereo": "stereo not drawn", "percent effect": -2.531}
{"compound": "CC(c1ccon1)N(C)C(=O)c1cccc(N)n1", "stereo": "stereo not drawn", "percent effect": -2.205}
{"compound": "COc1ccnc(CN2CCCC2CSC)c1OC", "stereo": "stereo not drawn", "percent effect": 55.01}
{"compound": "NC(=O)CCN1CCCC1c1ccsc1", "stereo": "stereo not drawn", "percent effect": 18.63}
{"compound": "COc1ncccc1CNS(=O)(=O)C1CC1", "percent effect": -8.416}
{"compound": "Cc1nccn1CCCN(C)CC1COCCO1", "stereo": "stereo not drawn", "percent effect": -12.81}
{"compound": "O=C(c1cc(Cl)ccc1F)N1CCNCC1", "percent effect": 0.4294}
{"compound": "Cn1ncnc1SCC(=O)N1CCCCC1", "percent effect": -0.05566}
{"compound": "CNC(=O)CCN1CCC(c2ccc(OC)cc2)CC1", "percent effect": 16.37}
{"compound": "Cc1cccc(CCC(=O)OC(C)C(N)=O)c1", "stereo": "stereo not drawn", "percent effect": 27.22}
{"compound": "NCc1ccnc(OCC(F)F)c1", "percent effect": 29.4}
{"compound": "C=Cc1ccc(OC)nc1", "percent effect": 8.023}
{"compound": "c1cncc(CN2CCN(Cc3cccnc3)CC2)c1", "percent effect": 6.116}
{"compound": "CS(=O)(=O)NC1CNC1", "percent effect": -13.73}
{"compound": "COc1ccc(Cl)c(N2CCNCC2)c1", "percent effect": 45.6}
{"compound": "O=C(COCC(=O)N1CCCCC1)Nc1ccccc1", "percent effect": 13.11}
{"compound": "COC(=O)c1ccc(CSc2n[nH]c(=O)n2C)o1", "percent effect": 20.22}
{"compound": "CC(N)C(=O)NCCN(C)C", "stereo": "stereo not drawn", "percent effect": 10.12}
{"compound": "NC(=O)C[C@@H](N)c1ccc(F)cc1", "percent effect": 2.751}
{"compound": "CC1(C)NC(=O)CC1c1ccccc1", "stereo": "stereo not drawn", "percent effect": 15.47}
{"compound": "CS(=O)(=O)NCc1ccnc(Oc2ccc(F)cc2)c1", "percent effect": 55.38}
{"compound": "NCC(=O)N(Cc1cccs1)Cc1cccs1", "percent effect": 74.2}
{"compound": "Cn1cc(CN2C(=O)c3ccccc3CS2(=O)=O)cn1", "percent effect": 26.84}
{"compound": "CN(C)c1nc(N)nc(COC(=O)c2ccsc2)n1", "percent effect": -7.045}
{"compound": "CCc1ccc(CNc2ccc(CO)cn2)cc1", "percent effect": 70.54}
{"compound": "CC(=O)N1CCN(C(=O)c2cc3ccccc3o2)CC1", "percent effect": 16.75}
{"compound": "CCS(=O)(=O)N1CCC2(CC1)OCCO2", "percent effect": 3.075}
{"compound": "CC(C)C(N)c1nc(-c2ccncc2)no1", "stereo": "stereo not drawn", "percent effect": 34.63}
{"compound": "COc1cccc(C(C)O)c1", "stereo": "stereo not drawn", "percent effect": 3.015}
{"compound": "Nc1nc(NCc2ccncc2)cc(-n2cccn2)n1", "percent effect": -8.093}
{"compound": "Cc1cc(C)c(C(=O)NCC(O)C2CCCC2)c(=O)[nH]1", "stereo": "stereo not drawn", "percent effect": -19.63}
{"compound": "CN(Cc1ccsc1)S(=O)(=O)c1ccc(C(N)=O)cc1", "percent effect": 29.63}
{"compound": "CN1CCN(c2ccccc2C#N)CC1", "percent effect": 13.66}

Some entries from above, unchanged:

Compound,percent effect
Cc1cccc(CCC(=O)OC(C)C(N)=O)c1 (stereo not drawn),27.22
CCC(CO)Nc1ncnc2c1c(Br)nn2C (stereo not drawn),25.65
CN1CCN(c2ccccc2C#N)CC1,13.66
NCCn1cc(C(=O)NCCSC2CCCCC2)nn1,61.4
CS(=O)(=O)NCc1ccnc(Oc2ccc(F)cc2)c1,55.38
COC(=O)c1ccc(CSc2n[nH]c(=O)n2C)o1,20.22
Nc1ccc(C2CCCN2)nn1 (stereo not drawn),8.13